The series addresses T1, His-OpaR (Vibrio parahaemolyticus RIMD 2210633) (UniProt Q79YV4).
T1 sequence: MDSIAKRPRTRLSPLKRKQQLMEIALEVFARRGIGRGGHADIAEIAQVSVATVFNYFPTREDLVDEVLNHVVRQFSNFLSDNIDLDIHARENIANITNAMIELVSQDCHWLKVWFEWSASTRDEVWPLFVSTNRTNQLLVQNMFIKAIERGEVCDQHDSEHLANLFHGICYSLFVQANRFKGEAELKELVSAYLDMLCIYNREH
Kind of series: EMSA. Conditions: 1 mM MgCl2, 0.5 mM EDTA, 0.5 mM DTT, 50 mM NaCl, 10 mM Tris-HCl pH 7.5, 0.05 mg/ml poly(dI-dC), room temperature, 30 min; footprinting same buffer; recombinant protein; residues 1-204; protein details: 6xHis (pET28a, BamHI/HindIII); label: 5'-32P; probe letters rebuilt from the primers and the genome.

As to “TGTGGGTTGAGGTAGGTCGCACGCAAACGATCACCTAATCTTACGGCGTGTAGTGTATCACCACGAAGAGTGGGTTGAAAGTCACATCCTTTTGCGGAAAATTCTTGGGAGCGCTGCCAAATTTTCGAAAGTTTACAGCAAAACTTATCAATAATAATGACATTACTGTCTATAAATTATCCATCAGATGTTGACCTTGTGCATATGCACCATTACACTCATCACTGCTTAAAGCAATTATTAAAATAATCAATTAGGGGGTTACCCCCAACAACAACTCAAATGGCAAGGAAAATGGATATGGACTCAATTGCAAAGAGACCTAGAACTAGGC (double strand) [opaR promoter EMSA fragment]”, the binding result was “binds”.

Values taken from article PMC3323551.
